Pooled drug test results. Numbers come from NIAID ChemDB, via PubChem.

All rows: whole-cell or culture tests; species: Candida albicans; endpoint: zone

Neighbouring rows are from separate reports. Zone: diameter of growth inhibition. An empty or dashed field is not shown.

compound,strain,read by,tested at,result
O=C1C(Cl)C(c2ccc(F)cc2)N1Nc1nc2ccccc2n2nnnc12,ATCC 2091,agar diffusion,50 µg/mL,7 mm
CS(=O)(=O)c1nc(N)c(C#N)c(-c2cccc([N+](=O)[O-])c2)n1,MTCC 227,agar diffusion,100 µg/mL,19 mm
COc1ccccc1N1CCN(Cn2nc(C34CC5CC(CC(C5)C3)C4)n(/N=C/c3c(Cl)cccc3Cl)c2=S)CC1,IFO 3007,agar diffusion,200 µg/disc,<10 mm
COc1ccc(Cc2ccc(OC)c(-c3nnc4sc(Cc5ccccc5)nn34)c2)cc1-c1nnc2sc(Cc3ccccc3)nn12,ATCC 10231,agar diffusion / agar,100 µg/disc,24 mm
O=C1CSC(c2ccc(Cl)cc2)N1Nc1nc2ccccc2n2nnnc12,ATCC 2091,agar diffusion,100 µg/mL,12 mm
N=C1C(=S)N(c2cc(Cl)cc(Cl)c2)C(=O)N1CCCCCCN1C(=N)C(=S)N(c2cc(Cl)cc(Cl)c2)C1=O,,agar diffusion / agar,100000 µM,18 mm
COc1ccc(C2N=C(SC)NC(N)=C2C#N)cc1,MTCC 227,agar diffusion,25 µg/mL,17 mm
Cc1nc2ccccc2n(CC(=O)NN2C(=O)CSC2c2ccc([N+](=O)[O-])cc2)c1=O,,,50 µg/mL,12 mm
Cc1cc(O)c(C(C)C)cc1Cl,CN,agar diffusion,100 µg/mL,10 mm
O=C1CSC(c2ccccc2F)N1Nc1nc2ccccc2n2nnnc12,ATCC 2091,agar diffusion,100 µg/mL,10 mm
NS(=O)(=O)c1ccc(-n2nc(-c3ccc(Cl)cc3)c3c(C(F)(F)F)cc(-c4ccc(-c5ccsc5)cc4)nc32)cc1,MTCC 227,agar diffusion / agar,4000 µg/mL,0 mm
CC1(C)C=C2C3CCC4[C@@]5(C)CC[C@H](OC(=O)/C=C/c6ccc(O)c(O)c6)C(C)(C)C5CC[C@@]4(C)[C@]3(C)CC[C@@]2(C)CC1,UPCC 2168,agar diffusion,30 mg/disc,13 mm
Clc1ccc(CSc2nnc(C34CC5CC(CC(C5)C3)C4)n2-c2ccccc2)cc1,IFO 0583,agar diffusion,200 µg/disc,<10 mm
CCC(C)CCCCCCCCCCC(=O)N[C@H]1C[C@@H](O)[C@@H](SCC(=O)OC)NC(=O)C2[C@@H](O)[C@@H](C)CN2C(=O)C(CO)NC(=O)C([C@H](O)C(SCC(=O)OC)c2ccc(O)cc2)NC(=O)NC(=O)[C@@H]2C[C@@H](O)CN2C(=O)[C@H]([C@@H](C)O)NC1=O,IV,agar,2 mg/mL,10 mm
O=C1C(Cl)C(c2ccc(C(F)(F)F)cc2)N1Nc1nc2ccccc2n2nnnc12,ATCC 2091,agar diffusion,100 µg/mL,9 mm
COc1ccccc1N1CCN(Cn2nc(C34CC5CC(CC(C5)C3)C4)n(-c3ccccc3)c2=S)CC1,IFO 0583,agar diffusion,200 µg/disc,<10 mm
N=C1C(=S)N(c2ccc(I)cc2)C(=O)N1c1ccc(Oc2ccc(N3C(=N)C(=S)N(c4ccc(I)cc4)C3=O)cc2)cc1,,agar diffusion / agar,100000 µM,22 mm
CC1/C(=N\O)C(=O)NCCCOc2c(O)cc(c(Br)c2Br)C/C2=N\O[C@@H]3[C@H](Br)[C@@]4(C=C[C@@]3(O)C/C(=N\O)C(=O)NC[C@@H](O)[C@@H](O)[C@H](O)CNC2=O)Oc2cc1cc(Br)c2O4,,agar diffusion,50 µg/disc,9 mm
CCC(C)CCCCCCCCCCC(=O)N[C@H]1C[C@@H](O)[C@@H](OC)NC(=O)C2[C@@H](O)[C@@H](C)CN2C(=O)C(CO)NC(=O)C([C@H](O)C(O)c2ccc(O)cc2)NC(=O)NC(=O)[C@@H]2C[C@@H](O)CN2C(=O)[C@H]([C@@H](C)O)NC1=O,IV,agar,2 mg/mL,26 mm
COc1ccc(C2SCC(=O)N2NC(=O)Cn2c(=O)c(C)nc3ccccc32)cc1OC,,,50 µg/mL,10 mm
CCOC(=O)C1CCN(Cn2nc(C34CC5CC(CC(C5)C3)C4)n(/N=C/c3ccc(OC)c(OC)c3)c2=S)CC1,IFO 3007,agar diffusion,200 µg/disc,<10 mm
COc1ccc(Cc2ccc(OC)c(-c3nnc4sc(-c5ccc(Cl)cc5)nn34)c2)cc1-c1nnc2sc(-c3ccc(Cl)cc3)nn12,ATCC 10231,agar diffusion / agar,100 µg/disc,10 mm
Cc1ccccc1Nc1ccc(Nc2c(Cl)c(F)c(C#N)c(F)c2C#N)c2nc[nH]c(=O)c12,ATCC 10231,agar diffusion,1000 µg/mL,6 mm
CCN(CC)CCSc1nnc(C23CC4CC(CC(C4)C2)C3)n1C,IFO 0583,agar diffusion,200 µg/disc,<10 mm
CSC1=NC(c2ccccc2O)C(C#N)=C(N)N1,MTCC 227,agar diffusion,25 µg/mL,17 mm
CCC(C)CCCCCCCCCCC(=O)N[C@H]1C[C@@H](O)[C@@H](O)NC(=O)C2[C@@H](O)[C@@H](C)CN2C(=O)C(CO)NC(=O)C([C@H](O)C(O)c2ccc(O)cc2)NC(=O)NC(=O)[C@@H]2C[C@@H](O)CN2C(=O)[C@H]([C@@H](C)O)NC1=O,IV,agar,1 mg/mL,29 mm
O=C1C(Cl)C(c2ccc(O)cc2)N1Nc1nc2ccccc2n2nnnc12,ATCC 2091,agar diffusion,100 µg/mL,12 mm
COc1ccccc1/C=N/n1c(C23CC4CC(CC(C4)C2)C3)n[nH]c1=S,IFO 3007,agar diffusion,200 µg/disc,<10 mm
CCN(CC)c1ccc(N)c2nc[nH]c(=O)c12,ATCC 10231,agar diffusion,1000 µg/mL,0 mm
CC1(C)C=C2C3CCC4[C@@]5(C)CC[C@H](OC(=O)/C=C/c6ccc(O)cc6)C(C)(C)C5CC[C@@]4(C)[C@]3(C)CC[C@@]2(C)CC1,UPCC 2168,agar diffusion,30 mg/disc,12 mm
CCOC(=O)N1CCN(Cn2nc(C34CC5CC(CC(C5)C3)C4)n(/N=C/c3c(Cl)cccc3Cl)c2=S)CC1,IFO 3007,agar diffusion,200 µg/disc,<10 mm
O=C1C(Cl)C(c2ccccc2Cl)N1Nc1nc2ccccc2n2nnnc12,ATCC 2091,agar diffusion,100 µg/mL,11 mm
c1ccc(-c2nnc(CN3CCC(n4nc5ccccc5n4)CC3)o2)cc1,,,1200 µg/mL,24.21 mm
CC(=O)N1CCN(c2ccc(OC[C@H]3CO[C@](Cn4ccnc4)(c4ccc(Cl)cc4Cl)O3)cc2)CC1,C5,agar diffusion / agar,20 mg/mL,12 mm
Cc1ccc(N2C(=O)N(CCCCCCN3C(=N)C(=S)N(c4ccc(C)cc4)C3=O)C(=N)C2=S)cc1,,agar diffusion / agar,100000 µM,20 mm
NS(=O)(=O)c1ccc(-n2nc(-c3ccccc3)c3c(C(F)(F)F)cc(-c4ccc(-c5ccsc5)cc4)nc32)cc1,MTCC 227,agar diffusion / agar,4000 µg/mL,0 mm
C/C=C/C1=CC2=CC(=O)[C@](C)(OC(=O)c3c(C)cc(O)c(O)c3OC)C(=O)C2=CO1,ATCC 64548,agar diffusion,1 µg/disc,0 mm
CCC(C)CCCCCCCCCCC(=O)N[C@H]1C[C@@H](O)[C@@H]([n+]2cc[nH]c2)NC(=O)C2[C@@H](O)[C@@H](C)CN2C(=O)C(CO)NC(=O)C([C@H](O)C(O)c2ccc(O)cc2)NC(=O)NC(=O)[C@@H]2C[C@@H](O)CN2C(=O)[C@H]([C@@H](C)O)NC1=O,IV,agar,5 mg/mL,24 mm
Brc1ccccc1-c1nnc(CN2CCC(n3nc4ccccc4n3)CC2)o1,,,300 µg/mL,2.5 mm
Cc1nc2ccccc2n(CC(=O)NN2C(=O)CSC2c2ccccc2F)c1=O,,,100 µg/mL,15 mm
COc1ccc(/C=N/n2c(C34CC5CC(CC(C5)C3)C4)n[nH]c2=S)cc1OC,IFO 3007,agar diffusion,200 µg/disc,<10 mm
Cc1nc2ccccc2n(CC(=O)NN2C(=O)CSC2c2ccc(C(F)(F)F)cc2)c1=O,,,50 µg/mL,14 mm
CCC(C)CCCCCCCCCCC(=O)N[C@H]1C[C@@H](O)[C@@H](S(=O)(=O)CC(=O)OC)NC(=O)C2[C@@H](O)[C@@H](C)CN2C(=O)C(CO)NC(=O)C([C@H](O)C(O)c2ccc(O)cc2)NC(=O)NC(=O)[C@@H]2C[C@@H](O)CN2C(=O)[C@H]([C@@H](C)O)NC1=O,IV,agar,2 mg/mL,23 mm
O=C1CSC(c2ccc(C(F)(F)F)cc2)N1Nc1nc2ccccc2n2nnnc12,ATCC 2091,agar diffusion,100 µg/mL,10 mm
Cc1ccc(O)c(O)c1O,,,200 µg/mL,16 mm
NS(=O)(=O)c1ccc(-n2nc(-c3ccc(Cl)cc3)c3c(C(F)(F)F)cc(-c4ccc(Cl)cc4)nc32)cc1,MTCC 227,agar diffusion / agar,4000 µg/mL,0 mm
CCN1CCN(Cn2nc(C34CC5CC(CC(C5)C3)C4)n(/N=C/c3c(F)cccc3F)c2=S)CC1,IFO 3007,agar diffusion,200 µg/disc,<10 mm
Nc1ccc(Nc2ccc(Cl)cc2)c2c(=O)[nH]cnc12,ATCC 10231,agar diffusion,1000 µg/mL,0 mm
CCC(C)CCCCCCCCCCC(=O)N[C@H]1C[C@@H](O)[C@@H](N=[N+]=[N-])NC(=O)C2[C@@H](O)[C@@H](C)CN2C(=O)C(CO)NC(=O)C([C@H](O)C(N=[N+]=[N-])c2ccc(O)cc2)NC(=O)NC(=O)[C@@H]2C[C@@H](O)CN2C(=O)[C@H]([C@@H](C)O)NC1=O,IV,agar,5 mg/mL,25 mm
Cc1c(Br)cccc1-c1nnc(CN2CCC(n3nc4ccccc4n3)CC2)o1,,,300 µg/mL,2.09 mm
COc1ccc(-c2nn3c(-c4cc(Cc5ccc(OC)c(-c6nnc7sc(-c8ccc(OC)cc8)nn67)c5)ccc4OC)nnc3s2)cc1,ATCC 10231,agar diffusion / agar,100 µg/disc,10 mm
Fc1cccc(-c2nnc(CN3CCC(n4nc5ccccc5n4)CC3)o2)c1F,,,300 µg/mL,3.33 mm
COc1ccc(C2C(Cl)C(=O)N2Nc2nc3ccccc3n3nnnc23)cc1,ATCC 2091,agar diffusion,50 µg/mL,8 mm
CSC1=NC(c2cccc3cc4ccccc4cc23)C(C#N)=C(N)N1,MTCC 227,agar diffusion,50 µg/mL,17 mm
Fc1ccc(/C=N/n2c(C34CC5CC(CC(C5)C3)C4)n[nH]c2=S)cc1,IFO 3007,agar diffusion,200 µg/disc,17 mm
CS(=O)(=O)c1nc(N)c(C#N)c(-c2ccccc2)n1,MTCC 227,agar diffusion,100 µg/mL,19 mm
COc1cc(N2C(=N)C(=S)N(c3ccc(Cl)cc3)C2=O)ccc1-c1ccc(N2C(=N)C(=S)N(c3ccc(Cl)cc3)C2=O)cc1OC,,agar diffusion / agar,100000 µM,20 mm
CN(C)CCn1nc(C23CC4CC(CC(C4)C2)C3)n(C)c1=S,IFO 0583,agar diffusion,200 µg/disc,<10 mm
N=C1C(=S)N(c2ccc(Cl)cc2)C(=O)N1CCCCCCN1C(=N)C(=S)N(c2ccc(Cl)cc2)C1=O,,agar diffusion / agar,100000 µM,19 mm
CCN(CC)c1ccc(Nc2c(Cl)c(Cl)c(C#N)c(Cl)c2C#N)c2nc[nH]c(=O)c12,ATCC 10231,agar diffusion,1000 µg/mL,0 mm
Cc1ccc(-c2nn(-c3ccc(S(N)(=O)=O)cc3)c3nc(-c4ccc(F)cc4)cc(C(F)(F)F)c23)cc1,MTCC 227,agar diffusion / agar,4000 µg/mL,0 mm

A second listing of 6 rows from above:

compound	strain	read by	tested at	result
NS(=O)(=O)c1ccc(-n2nc(-c3ccccc3)c3c(C(F)(F)F)cc(-c4ccc(-c5ccsc5)cc4)nc32)cc1	MTCC 227	agar diffusion / agar	4000 µg/mL	0 mm
CCN1CCN(Cn2nc(C34CC5CC(CC(C5)C3)C4)n(/N=C/c3c(F)cccc3F)c2=S)CC1	IFO 3007	agar diffusion	200 µg/disc	<10 mm
Brc1ccccc1-c1nnc(CN2CCC(n3nc4ccccc4n3)CC2)o1			300 µg/mL	2.5 mm
CCC(C)CCCCCCCCCCC(=O)N[C@H]1C[C@@H](O)[C@@H](OC)NC(=O)C2[C@@H](O)[C@@H](C)CN2C(=O)C(CO)NC(=O)C([C@H](O)C(O)c2ccc(O)cc2)NC(=O)NC(=O)[C@@H]2C[C@@H](O)CN2C(=O)[C@H]([C@@H](C)O)NC1=O	IV	agar	2 mg/mL	26 mm
COc1ccccc1/C=N/n1c(C23CC4CC(CC(C4)C2)C3)n[nH]c1=S	IFO 3007	agar diffusion	200 µg/disc	<10 mm
Cc1nc2ccccc2n(CC(=O)NN2C(=O)CSC2c2ccc(C(F)(F)F)cc2)c1=O			50 µg/mL	14 mm